How the values were obtained:
[1] = test system: Schistosoma mansoni; experiment: Antischistosomal activity against Schistosoma mansoni NTS incubated for 72 hrs; format: functional, organism-based
Procedure, shortened: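 NTS from mechanically transformed cercariae (Liberian strain), 100 per well in Medium 199 + 5% iFCS, penicillin/streptomycin, preincubated 12–24 h at 37°C, 5% CO2. Exposed to 0.37–90 μg/ml (threefold steps) for 72 h. Scored microscopically on a viability scale (death, motility, morphology). DMSO control; duplicates, at least three experiments; IC50 from viability scores.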

[2] = test system: Schistosoma mansoni; experiment: Antischistosomal activity against adult Schistosoma mansoni schistosomes incubated for 72 hrs in presence of 120 uM Fe(3)-hemin
[3] = test system: Schistosoma mansoni; experiment: Antischistosomal activity against adult Schistosoma mansoni schistosomes incubated for 72 hrs

Compound	IC50 [1] [µM]	IC50 [2] [µM]	IC50 [3] [µM]
C[C@]12OO[C@](C)(OO1)C2CCC#N (stereo partly drawn)	15.3	–	–
C[C@]12OO[C@](C)(OO1)C2CC1CO1 (stereo partly drawn)	1.2	91.9	–
C[C@]12OO[C@](C)(OO1)C2CCC(=O)O (stereo partly drawn)	58.1	–	–
CCOC(=O)CCC1[C@]2(C)OO[C@@]1(C)OO2 (stereo partly drawn)	9.8	–	–
C[C@]12OO[C@](C)(OO1)C2Cc1ccc([N+](=O)[O-])cc1 (stereo partly drawn)	4.4	–	–
C[C@]12OO[C@](C)(OO1)C2Cc1ccccc1 (stereo partly drawn)	5	–	41.4
CCCCCCC1[C@]2(C)OO[C@@]1(C)OO2 (stereo partly drawn)	0.2	27.3	61.5
C=CCC1[C@]2(C)OO[C@@]1(C)OO2 (stereo partly drawn)	3.4	–	49.8
CCCCC1[C@]2(C)OO[C@@]1(C)OO2 (stereo partly drawn)	0.5	–	37.8
C[C@]12OO[C@](C)(OO1)C2CC(Br)CBr (stereo partly drawn)	3.4	> 89.8	> 89.8
